Assay [1] concerns the target recombinant viral envelope protein gp120LAI (HIV-1 strain LAI), P03377. The assay can be described thus: competition ELISA, peptide against soluble CD4 on rgp120LAI.
Assay [2] has as its target recombinant viral envelope protein gp120HXB2 (HIV-1 strain HXB2), P04578. As to the kind of experiment: competition ELISA, peptide against soluble CD4 on rgp120HXB2.

The text below walks through data of US7374875, “Peptides having affinity for the gp120 viral protein and use thereof” (dated 2008).

With CNLARCQLRCKSLGLLGKCAGSFCACGP (modifications not checked) [CD4M9], the results for the IC50 in assay [1] and in assay [2] were 400 nM and 90 nM, respectively. Consider CNLARCQLRCKSLGLLGKCAGSFCACV (modifications not checked) [CD4M9V], for which, in assay [1], the half-inhibitory concentration (IC50) is 300 nM. As to VSCTTSKECWSVCQRLHNTSKGGCQGSFCTCGP (modifications not checked) [CD4M0], in assay [1], the IC50 turned out to be 40000 nM.
